Measured values from several laboratories, pooled; numbers as filed in NIAID ChemDB.

Common to all: tests in culture; agent: Mycobacterium avium

Conditions beyond the fields shown may differ between rows. ECn: concentration that inhibits the pathogen or its effect by n%. Blank or dashed fields: not listed here. A number after MIC or MFC names an inhibition level or a share of isolates.

FC(F)(F)C(F)(F)C(F)(F)C(F)(F)c1nc2cc(Cl)c(Cl)cc2[nH]1 ; measure: MIC ; strain: MY330/88 ; result: 8 µM
Cc1c(C)c(C)[c-](C)c1C.N[C@@H](Cc1ccccc1)C(=O)[O-].[Cl][Ir+2] ; measure: MIC ; strain: A5 ; result: >250 µg/mL
CCCCCC[N+]1(CCOC(=O)Nc2ccccc2OCCCCC)CCCCC1 ; measure: MIC ; strain: MY330/88 ; result: 62.5 µM
Cc1ccc(OC/C(N)=N\NC(=O)c2ccncc2)cc1 ; measure: MIC ; strain: ATCC 19421 ; result: >100 µg/mL
CCCCCCCCC#Cc1cn([C@H]2C[C@H](O)[C@@H](CO)O2)c(=O)[nH]c1=O ; measure: MIC90 ; result: >100 µg/mL
CCCCCOc1ccccc1NC(=O)OCC[N+]1(Cc2ccccc2)CCCCC1 ; measure: MIC ; strain: MY330/88 ; result: 250 µM
O=C(N/N=C(\COc1ccc(Cl)cc1)N=Cc1cccnc1)c1ccncc1 ; measure: MIC ; strain: ATCC 19421 ; result: >100 µg/mL
Cc1c(F)c(N2CCNC(C)C2)cc2c1c(=O)c(C(=O)O)cn2C1CC1 ; measure: MIC90 ; strain: 36 strains ; result: 12.5 µg/mL
CCCCCCCC[N+]1(CCOC(=O)Nc2ccccc2OCCCCC)CCCCC1 ; measure: MIC ; strain: MY330/88 ; result: 32 µM
NNC(=O)c1ccncc1 ; measure: MIC90 ; strain: 36 strains ; result: 100 µg/mL
CC(=O)NC[C@H]1CN(c2ccc(N3CCN(c4ccc([N+](=O)[O-])s4)CC3)c(F)c2)C(=O)O1 ; measure: MIC ; strain: AIIMS ; result: 0.25 µg/mL
Nc1ccccc1C(=O)Nc1cccc(Cl)c1 ; measure: MIC ; strain: MY330/88 ; result: >125 µM
FC(F)(F)C(F)(F)C(F)(F)c1nc2c(Cl)cc(Cl)cc2[nH]1 ; measure: MIC ; strain: MY330/88 ; result: 32 µM
NC[C@H]1O[C@H](O[C@H]2[C@H](O)[C@@H](O[C@H]3O[C@H](CO)[C@@H](O)[C@H](N)[C@H]3O)[C@H](N)C[C@@H]2N)[C@H](O)[C@@H](O)[C@@H]1O ; measure: MIC50 ; strain: 100 strains ; result: 3.95 µg/mL
CCOC1Oc2ccc([N+](=O)[O-])cc2C(=O)/C1=C\Nc1ccc(C(=O)O)c(O)c1 ; measure: MIC ; strain: MY 80/72 ; result: 25 µg/mL
Cc1c(CN2CCN(C)CC2)cc(-c2ccccc2)n1-c1ccccc1F ; measure: MIC ; strain: 103317 ; result: >16 µg/mL
CCCCCCC(C/C(C)=C/CC[C@H](C)CCO)C(=O)O ; measure: MIC ; result: 62.5 µM
Oc1ccc(Cl)cc1C(=S)Nc1ccc(Cl)c(Cl)c1 ; measure: MIC ; strain: MY330/88 ; result: 62.5 µM
FC(F)(F)c1nc2c(Br)cc(Br)cc2[nH]1 ; measure: MIC ; strain: MY330/88 ; result: 62.5 µM
CCOC1Oc2ccccc2C(=O)/C1=C\Nc1ccc(O)c(C(=O)O)c1 ; measure: MIC ; strain: MY 80/72 ; result: >100 µg/mL
O=c1oc2ccc(F)cc2c(=O)n1-c1ccccc1 ; measure: MIC ; strain: CNCTC MY330/88 ; result: 31 µM
O[C@@H](c1cc(C(F)(F)F)nc2c(C(F)(F)F)cccc12)[C@@H]1CCCCN1 ; measure: MIC50 ; read by: broth dilution / radiometric ; strain: MAC 101 ; result: 32 µg/mL
C[C@@H]1CN(c2c(F)c(N)c3c(=O)c(C(=O)O)cn(C4CC4)c3c2F)C[C@H](C)N1 ; measure: MIC ; read by: broth dilution / visual reading ; strain: ATCC 15769 ; result: 0.5 µg/mL
CO[C@H]1/C=C/O[C@@]2(C)Oc3c(C)c(O)c4c(O)c(c(/C=N/N5CCN(C6CCCC6)CC5)c(O)c4c3C2=O)NC(=O)/C(C)=C\C=C\[C@H](C)[C@H](O)[C@@H](C)[C@@H](O)[C@@H](C)[C@H](OC(C)=O)[C@@H]1C ; measure: MIC90 ; strain: 36 strains ; result: 50 µg/mL
CC1COc2c(N3CCN(C)CC3)c(F)cc3c(=O)c(C(=O)O)cn1c23 ; measure: MIC90 ; strain: 18 strains ; result: 50 µg/mL
O[C@@H](c1cc(C(F)(F)F)nc2c(C(F)(F)F)cccc12)C1CCCCN1 ; measure: MIC90 ; read by: broth dilution / radiometric ; strain: MAC 101 ; result: 32 µg/mL
FC(F)(F)C(F)(F)c1nc2c(Br)c(Br)c(Br)c(Br)c2[nH]1 ; measure: MIC ; strain: MY330/88 ; result: 125 µM
CCCCC(C/C=C(/C)CCC=C(C)C)C(=O)O ; measure: MIC ; result: 250 µM
Cc1c(CN2CCSCC2)cc(-c2ccccc2)n1-c1ccccc1 ; measure: MIC ; strain: 103317 ; result: >16 µg/mL
Cc1c(OCC(F)(F)F)ccnc1CSc1nc2ccccc2[nH]1 ; measure: MIC90 ; read by: resazurin ; result: >100 µM
COc1ccc(OC/C(N=Cc2ccncc2)=N\NC(=O)c2ccncc2)cc1 ; measure: MIC ; strain: ATCC 19421 ; result: >100 µg/mL
O=c1nc2c(ncn2Cc2ccccc2)c(C#Cc2ccccc2)n1Cc1ccccc1 ; measure: MIC ; cells: VERO ; result: >12.5 µg/mL
CC1COc2c(N3CCN(C)CC3)c(F)cc3c(=O)c(C(=O)O)cn1c23 ; measure: MIC90 ; strain: 36 strains ; result: 12.5 µg/mL
O=c1[nH]c(=O)n([C@H]2C[C@H](O)[C@@H](CO)O2)cc1Br ; measure: EC50 ; strain: ATCC 25291 ; result: >50 µg/mL
Cc1ccc2oc(=O)n(-c3ccc([N+](=O)[O-])cc3)c(=O)c2c1 ; measure: MIC ; strain: CNCTC MY330/88 ; result: 16 µM
CCCCCCOC1Oc2ccc(Cl)cc2C(=O)/C1=C\Nc1ccc(C(=O)O)c(O)c1 ; measure: MIC ; strain: MY 80/72 ; result: 50 µg/mL
Cc1c(CN2CCN(C)CC2)cc(-c2ccccc2)n1-c1ccccc1Cl ; measure: MIC ; strain: 103317 ; result: >16 µg/mL
CCCCCOc1ccccc1NC(=O)OCC[N+]1(CC)CCCCC1 ; measure: MIC ; strain: MY330/88 ; result: 1000 µM
CC(=O)OC[C@H]1O[C@@H](n2cc(C(F)CBr)c(=O)[nH]c2=O)C[C@@H]1OC(C)=O ; measure: EC50 ; strain: ATCC 25291 ; result: <5 µg/mL
Cc1ccc2c(=O)n(-c3cccc([N+](=O)[O-])c3)c(=O)oc2c1 ; measure: MIC ; strain: CNCTC MY330/88 ; result: 16 µM
CCCCCCCCCCC#Cc1cn([C@H]2C[C@H](O)[C@@H](CO)O2)c(=O)[nH]c1=O ; measure: MIC90 ; result: >100 µg/mL
COc1ccc(NC(=S)c2cc(Cl)ccc2O)cc1 ; measure: MIC ; strain: MY330/88 ; result: 16 µM
Cc1c(CN2CCSCC2)cc(-c2ccccc2)n1-c1ccccc1Cl ; measure: MIC ; strain: 103317 ; result: >16 µg/mL
FC(F)(F)C(F)(F)c1nc2c(Br)cc(Br)cc2[nH]1 ; measure: MIC ; strain: MY330/88 ; result: 32 µM
Cc1c(CN2CCN(C)CC2)cc(-c2ccccc2)n1-c1cccc2ccccc12 ; measure: MIC ; strain: 103317 ; result: >16 µg/mL
O[C@H](c1cc(C(F)(F)F)nc2c(C(F)(F)F)cccc12)[C@@H]1CCCCN1 ; measure: MIC90 ; read by: broth dilution / radiometric ; strain: MAC 101 ; result: 16 µg/mL
O=c1[nH]c(=O)n([C@@H]2O[C@H](CO)[C@@H](O)[C@H]2F)cc1F ; measure: EC50 ; strain: ATCC 25291 ; result: >50 µg/mL
N/C(COc1cccc(Cl)c1)=N/NC(=O)c1ccncc1 ; measure: MIC ; strain: ATCC 19421 ; result: 100 µg/mL
CCc1ccc(NC(=S)c2cc(Cl)ccc2O)cc1 ; measure: MIC ; strain: MY330/88 ; result: 31 µM
CCOC1Oc2ccc(C)cc2C(=O)/C1=C\Nc1ccc(C(=O)O)c(O)c1 ; measure: MIC ; strain: MY 80/72 ; result: 25 µg/mL
CC(C)=CCCC(C)CCCC(C)CC(=O)O ; measure: MIC ; result: 31.25 µM
C[C@H]1CN(c2c(F)cc3c(=O)c(C(=O)O)cn(C4CC4)c3c2OC(F)F)CCN1 ; measure: MIC90 ; strain: 36 strains ; result: 3.13 µg/mL
CC(=O)Nc1ccc(/C=N/NC(N)=S)cc1 ; measure: MIC ; strain: 3337 ; result: 0.15 µg/mL
FC(F)(F)c1nc2c(Br)c(Br)c(Br)c(Br)c2[nH]1 ; measure: MIC ; strain: MY330/88 ; result: 125 µM
CCCCCCOc1ccccc1NC(=O)OCC[N+]1(CCCCCC)CCCCC1 ; measure: MIC ; strain: MY330/88 ; result: 16 µM
CC(C)=CCCC(C)C/C=C/C(C)=C/C(=O)O ; measure: MIC ; result: 15.6 µM
COc1cccc(OC/C(N)=N\NC(=O)c2ccncc2)c1 ; measure: MIC ; strain: ATCC 19421 ; result: >100 µg/mL
N#Cc1ccc(-n2c(=O)oc3ccccc3c2=O)cc1 ; measure: MIC ; strain: CNCTC MY330/88 ; result: 32 µM
CCCC(CC(=O)O)c1ccccc1 ; measure: MIC ; result: >100 µM

3 of the rows above, restated:

| compound | measure | read by | cells | strain | result |
|---|---|---|---|---|---|
| Cc1ccc2c(=O)n(-c3cccc([N+](=O)[O-])c3)c(=O)oc2c1 | MIC | - | - | CNCTC MY330/88 | 16 µM |
| Oc1ccc(Cl)cc1C(=S)Nc1ccc(Cl)c(Cl)c1 | MIC | - | - | MY330/88 | 62.5 µM |
| CC(C)=CCCC(C)CCCC(C)CC(=O)O | MIC | - | - | - | 31.25 µM |